Measured values: PMC12291119 (ACS Central Science, 2025)

Assay: general procedure: Fmoc solid-phase peptide synthesis; H-Rink amide Chemmatrix resin pre-loaded with Fmoc-Lys(biotin)-OH; DIC/Oxyma

| Substance | cyclisation yield (cyclisation step, on linear precursor) [% yield] | step yield (purification step, of the material that was purified) [%] |
| --- | --- | --- |
| H1-IAAIA-cyclic peptide | 37 | – |
| H1-IAAIA-peptide | – | 2.6 |
